Assay results taken from PMC10100805.
For at least one entry, the source does not settle the construct or the ends of the probe.

Amino acid sequences for entries named in this document (tags omitted). A change or cut given only in a name is not applied to a line headed by its entry.
UniProt Q5HCN2: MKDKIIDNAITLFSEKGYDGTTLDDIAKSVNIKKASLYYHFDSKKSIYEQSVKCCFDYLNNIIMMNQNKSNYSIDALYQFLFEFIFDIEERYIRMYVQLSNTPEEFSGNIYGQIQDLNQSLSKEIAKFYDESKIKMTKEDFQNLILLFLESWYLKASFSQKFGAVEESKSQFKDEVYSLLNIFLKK

Target: IcaR (FK300) (Staphylococcus aureus FK300) (UniProt Q5HCN2)
Test: EMSA
Details: 0.1-2 ug protein, 1 ng probe; recombinant protein; residues 1-186; protein details: N-terminal His6 (MHHHHHH, from primer); label: 5'-biotin on the reverse primer strand; probe letters rebuilt from the primers and the genome

ATTGCGTTATCAATAATCTTATCCTTCAATTTTTATAACCCCCTACTGAAAATTAATCACACTATGTTACAGGAAAATTAAGTTGCAATTACAAATATTTCCGTTTAATTATAACAACAATCTATTGCAAATTAAAATACTATCAATTACCATATGGCTTACAACCTAACTAACGAAAGGTAGGTAAAGGAATTGCAA (double strand) [icaR-icaA intergenic region (ica promoter)]
binding result: binds
